Experimental data: paper PMC8059821 (2021)

Target: SARS1-RBD-Fc (SARS-CoV-1)

B1: monomeric tagged soluble pangolin ACE2 (pangolin ACE2-CT) (domain or fragment)
chain: QSTSDEEAKTFLEKFNSEAEELSYQSSLASWNYNTNITDENVQKMNVAGAKWSTFYEEQSKIAKNYQLQNIQNDTIKRQLQALQLSGSSALSADKNQRLNTILNTMSTIYSTGKVCNPGNPQECSLLEPGLDNIMESSKDYNERLWAWEGWRSEVGKQLRPLYEEYVVLKNEMARANHYEDYGDYWRGDYEAEGANGYNYSRDHLIEDVEHIFTQIKPLYEHLHAYVRAKLMDNYPSHISPTGCLPAHLLGDMWGRFWTNLYPLTVPFRQKPNIDVTDAMVNQTWDANRIFKEAEKFFVSVGLPKMTQTFWENSMLTEPGDGRKVVCHPTAWDLGKHDFRIKMCTKVTMDDFLTAHHEMGHIQYDMAYAMQPYLLRNGANEGFHEAVGEIMSLSAATPKHLKNIGLLPPDFYEDNETEINFLLKQALTIVGTLPFTYMLEKWRWMVFSGQIPKEQWMKKWWEMKREIVGVVEPVPHDETYCDPASLFHVANDYSFIRYYTRTIYQFQFQEALCQTAKHEGPLHKCDISNSAEAGQKLLQMLSLGKSKPWTLALERVVGTKNMDVRPLLNYFEPLLTWLKEQNKNSFVGWNTDWSPY
  Kd: 1570 nM
